Measured values from several laboratories, pooled; numbers as filed in NIAID ChemDB.

Common to all: target-level tests; organism: HIV-1; protein: Protease; measure: Ki

Blank or dashed fields: not listed here. Conditions beyond the fields shown may differ between rows.

structure,changes,method,result
Cc1cnc(C(=O)N[C@H](C(=O)N[C@@H](Cc2ccccc2)[C@H](O)[C@H](O)[C@H](Cc2ccccc2)NC(=O)[C@@H](NC(=O)c2cnc(C)cn2)C(C)C)C(C)C)cn1,,substrate cleavage,0.0007 µM
CC(C)(C)[C@H](NC(=O)OCc1nc2ccccc2[nH]1)C(=O)N[C@@H](Cc1ccccc1)[C@@H](O)[C@H](CO)[C@H](Cc1ccccc1)NC(=O)[C@@H](NC(=O)OCc1nc2ccccc2[nH]1)C(C)(C)C,,,0.29 µM
COC(=O)c1cccc(CN2C(=O)C(=O)N(Cc3cccc(C(=O)OC)c3)[C@H](Cc3ccccc3)C(O)[C@H]2Cc2ccccc2)c1,,,0.04 µM
CC(C)CN(C[C@@H](O)[C@H](Cc1ccccc1)NC(=O)[C@@H](NC(=O)CNCc1cccc(F)c1)C(C)(C)C)S(=O)(=O)c1cccc(N)c1,,fluorescence,0.000012 µM
Cc1cccc(C)c1OCC(=O)N[C@@H](Cc1ccccc1)[C@H](O)CN1CC[C@@H](Sc2ccncc2)C[C@H]1C(=O)NC(C)(C)C,PR-I84V,fluorescence,0.000077 µM
CC(C)C[C@H](NC(=O)[C@@H](N)CO)C(=O)N[C@@H](CC(N)=O)C(=O)N[C@@H](Cc1ccccc1)B(O)O,PR-M46I V82F I84V L90M,HPLC,46 µM
O=C1N(Cc2ccccc2)[C@H](Cc2ccccc2)[C@H](O)[C@@H](O)[C@@H](Cc2ccccc2)N1Cc1ccccc1,,,0.0036 µM
CC(C)[C@H](NC(=O)[C@H](Cc1ccccc1)NC(=O)OCc1ccccc1)C(=O)N[C@@H](Cc1ccccc1)[C@@H](O)[C@@H](O)[C@@H](Cc1ccccc1)NC(=O)[C@@H](NC(=O)[C@H](Cc1ccccc1)NC(=O)OCc1ccccc1)C(C)C,,,0.0026 µM
O=C1[C@@H](Cc2ccccc2)C[C@@H](O)[C@@H](Cc2ccccc2)N1Cc1ccccc1,,,9.4 µM
CC(C)(C)[C@H](N)C(=O)N[C@@H](Cc1ccccc1)[C@H](O)[C@@H](CO)[C@H](Cc1ccccc1)NC(=O)[C@@H](N)C(C)(C)C,,,>1.25 µM
CC(C)(C)C(SC1CCCC1)c1c(O)cc(-c2ccccc2)oc1=O,,,0.058 µM
CC(C)[C@H](NC(=O)OCc1ccccc1)C(=O)O[C@@H](Cc1ccccc1)C(O)[C@H](Cc1ccccc1)OC(=O)[C@@H](NC(=O)OCc1ccccc1)C(C)C,,,0.016 µM
O=C1N(Cc2cccc(O)c2)[C@H](CCc2ccccc2)[C@@H](O)[C@@H](Cc2ccccc2)N1Cc1cccc(O)c1,,,0.00028 µM
CC(C)(C)NC(=O)[C@@H]1CCCN1C(=O)C(=O)C(Cc1ccccc1)NC(=O)OCc1ccccc1,,,0.2 µM
CC(C)C[C@H](NC(=O)[C@@H](N)[C@@H](C)O)C(=O)N[C@@H](CC(N)=O)C(=O)N[C@@H](Cc1ccccc1)B(O)O,PR-M46I V82F I84V L90M,HPLC,125 µM
O=c1n(Cc2ccccc2)c2c(Cc3ccccc3)oc(Cc3ccccc3)c2n1Cc1ccccc1,,,3.7 µM
CC(C)(C)OC(=O)N[C@@H](Cc1ccccc1)[C@@H](O)C[C@@H](Cc1ccc(OCCN2CCOCC2)cc1)C(=O)N[C@H]1c2ccccc2C[C@H]1O,PR-M46I,fluorescence,0.000054 µM
CC(C)C[C@H](NC(=O)OCc1ccccc1)C(=O)N[C@H](C(=O)N[C@@H](Cc1ccccc1)[C@@H](O)[C@H](O)[C@H](Cc1ccccc1)NC(=O)[C@@H](NC(=O)[C@H](CC(C)C)NC(=O)OCc1ccccc1)C(C)C)C(C)C,,,0.0014 µM
CC(C)(C)[C@H](NC(=O)OCCc1nc2ccccc2[nH]1)C(=O)N[C@@H](Cc1ccccc1)[C@@H](O)[C@H](CO)[C@H](Cc1ccccc1)NC(=O)[C@@H](NC(=O)OCCc1nc2ccccc2[nH]1)C(C)(C)C,,,0.43 µM
O=C1N(Cc2ccccc2)C[C@@H](O)[C@@H](Cc2ccccc2)N1Cc1ccccc1,,,2.5 µM
CC(C)(C)NC(=O)c1ccccc1C[C@@H](O)[C@H](CSc1ccc2ccccc2c1)NC(=O)[C@H](CC(N)=O)NC(=O)Oc1ccc2ccccc2n1,,,0.51 µM
CC(C)[C@H](NC(=O)N(C)Cc1ccccn1)C(=O)N[C@@H](Cc1ccccc1)[C@H](O)[C@H](O)[C@H](Cc1ccccc1)NC(=O)[C@@H](NC(=O)N(C)Cc1ccccn1)C(C)C,,fluorescence,0.000084 µM

A second listing of 3 rows from above:

structure,changes,method,result
CC(C)(C)[C@H](NC(=O)OCc1nc2ccccc2[nH]1)C(=O)N[C@@H](Cc1ccccc1)[C@@H](O)[C@H](CO)[C@H](Cc1ccccc1)NC(=O)[C@@H](NC(=O)OCc1nc2ccccc2[nH]1)C(C)(C)C,,,0.29 µM
O=c1n(Cc2ccccc2)c2c(Cc3ccccc3)oc(Cc3ccccc3)c2n1Cc1ccccc1,,,3.7 µM
O=C1N(Cc2ccccc2)C[C@@H](O)[C@@H](Cc2ccccc2)N1Cc1ccccc1,,,2.5 µM